Reference: patent US20100113430A1, “THIOXANTHENE DERIVATES USEFUL TO TREAT INFECTIOUS DISEASES” (BKG PHARMA APS, priority 2007, published 2010)

Tested on: clinically relevant resistant bacterial isolate S. Aureus
Assay: Growth inhibition by cis/trans combinations, resistant isolate S. Aureus
Type: cell-based
Conditions: Trans-compound 0.5 μg/ml, Cis-compound 0 μg/ml; MIC(trans alone)/MIC(trans in trans-cis mixture) × 100
Description: Cell growth was tested using the Minimal Inhibitory Concentration (MIC) susceptibility tests by use of the microdilution broth method in accordance to the NCCLS Guidelines (NCCLS Guidelines, Methods for Dilution Antimicrobial Susceptibility Tests for Bacteria That Grow Aerobically; Approved Standard, Sixth Edition, Volume 23; Number 2). The minimum inhibitory concentration (MIC), is defined ad the lowest concentration of drug which inhibits growth of the test organism, in the sense that no visible growth is detected (total inhibition of growth). In example 2 MIC of the compounds used on fungal microorganisms was determined from the IC90 measurements according to NCCLS Guidelines.
A log phase culture of bacteria was diluted with fresh pre-warmed Mueller-Hinton medium and adjusted to a defined OD at 600 nm in order to give a final concentration of 1×10^4-5 bacteria/ml medium. The bacterial culture was transferred to microtiter-plates and culture was added to each well. Drug was added to the bacterial culture in the wells as two-fold dilution series of drug in order to give final concentrations ranging from 0.03 to 128 μg/ml. Trays were incubated at 37° C. by shaking in a robot analyzer, PowerWavex, software KC^4′ Kebo.Lab, Copenhagen, for 16 h and optical densities were measured at 600 nm during the incubation time in order to record growth curves. […]

## Clc1ccc2c(c1)/C(=C/CCN1CCNCC1)c1ccccc1S2 [N-dealkyl-trans-clopenthixol, trans-1-(3-(2-chloro-thioxanthen-9-ylidene)propyl)piperazine]
  Effect index (trans-compound): 100
